Values quoted from earlier work as cited in US20030003508A1 (priority 1999, published 2003).

Tested on: “R. felis”
Conditions: bacterium known as “R. felis” (Radulovic et al. 1995a; 1996); cited from earlier work

For `CC[C@H]1OC(=O)[C@H](C)[C@@H](O[C@H]2C[C@@](C)(OC)[C@@H](O)[C@H](C)O2)[C@H](C)[C@@H](O[C@@H]2O[C@H](C)C[C@H](N(C)C)[C@H]2O)[C@](C)(O)C[C@@H](C)C(=O)[C@H](C)[C@@H](O)[C@]1(C)O` [Erythromycin], the “resistance/sensitivity to the antibiotic” value is listed as “sensitivity”.
